Anti-infective test results gathered from many reports (values: NIAID ChemDB through PubChem).

All rows: growth or infection tests; agent: HIV-1; read-out: EC50

Lines come from different laboratories, so protocols vary. ECn: concentration that inhibits the pathogen or its effect by n%. Blank or dashed fields: not listed here. Two numbers with a dash give a range or band.

compound	strain	cell line	read by	setting	value
COc1cc2ccnc(CN(CCCCN)Cc3ncccc3C)c2cc1OC	-	U87.CD4.CXCR4	entry / luminescence	-	0.013 µM
CCOC(=O)c1cc(C(=C2CCN(C(=O)C(=O)c3c[nH]c4c(-n5cnc(C)n5)ncc(OC)c34)CC2)c2ccccc2)n[nH]1	-	HeLa	luciferase	-	<1 µM
Cc1cccnc1CN(CCCCN)Cc1ccccn1	-	U87.CD4.CXCR4	entry / luminescence	-	0.18 µM
CC(C)C1=C2[C@H]3CC[C@@H]4[C@@]5(C)CC[C@H](OC(=O)[C@H]6C[C@@H](C(=O)O)C6(C)C)C(C)(C)[C@@H]5CC[C@@]4(C)[C@]3(C)CC[C@@]2(CCNCC2(N)CNC2)CC1=O	92HT599	MT-2	p24 / ELISA	-	<1 µM
CCCCCCCCCCCCCCCC(=O)NCC1CC(OP(=O)(O)OCC2CC(OP(=O)(O)OCC3CC(O)C(n4cnc5c(N)ncnc54)O3)C(n3cnc4c(N)ncnc43)O2)C(n2cnc3c(N)ncnc32)O1	IIIB	SupT1 + Sup-T1	syncytia	-	<100 µM
C1CCC(NC2=NCCN2)CCCC(NC2=NCCN2)C1	NL4-3	HEK 293	entry / fluorescence	-	6.62 µM
CC(C)C1=C2[C@H]3CC[C@@H]4[C@@]5(C)CC[C@H](OC(=O)[C@H]6C[C@@H](C(=O)O)C6(C)C)C(C)(C)[C@@H]5CC[C@@]4(C)[C@]3(C)CC[C@@]2(CC(=O)NCC(F)(CCN)NC(=O)c2ccc(Cl)cc2)CC1=O	92HT599	MT-2	p24 / ELISA	-	<1 µM
Cc1cccnc1CN(CCCCN)Cc1nccc2cc(Br)ccc12	-	U87.CD4.CXCR4	entry / luminescence	-	0.69 µM
C/C(=C(/CCO)SS/C(CCO)=C(\C)N(C=O)Cc1cnc(C)nc1N)N(C=O)Cc1cnc(C)nc1N	LAV-1	CEM/LAV-1 + CEM	-	-	125 µM
COCc1nc(Nc2ccc(C#N)cc2)nc(Oc2c(C)cc(/C=C/C#N)cc2C)c1C(=O)NCc1ccncc1	K103N + Y181C	MT4 CMV-EGFP	-	-	0.0631 µM
CC(C)=CC[C@]12O[C@H]1[C@@H](O)CC1=C2OC(C)(C)CC1=O	-	HeLa + C8166	MTT	-	>100 µM
CSC1=NC2(C[C@@H]2c2ccccc2)C(=O)N1C(C)=O	ADP/141	MT-4/C8166 + MT-4	MTT	-	2.3–5.8 µg/mL
COCc1nc(Nc2ccc(C#N)cc2)nc(Nc2c(C)cc(/C=C/C#N)cc2C)c1C(=O)NCCNC(C)=O	K103N+Y101C	MT4 CMV-EGFP	-	-	0.0209 µM
CC1(C)CC(=O)C2=C(O1)C1=C[C@@H](C(C)(C)O)O[C@H]1[C@@H](O)C2	-	HeLa + C8166	MTT	-	>100 µM
COCc1nc(Nc2ccc(C#N)cc2)nc(Nc2c(C)cc(/C=C/C#N)cc2C)c1C(=O)NCCc1ccccn1	K103N+Y101C	MT4 CMV-EGFP	-	-	0.0214 µM
COc1ncc(OC)c2c(C(=O)C(=O)N3CCC(=C(C)c4ccccc4)CC3)c[nH]c12	-	HeLa	luciferase	-	<1 µM
CC(C)C1=C2[C@H]3CC[C@@H]4[C@@]5(C)CC[C@H](OC(=O)[C@H]6C[C@@H](C(=O)O)C6(C)C)C(C)(C)[C@@H]5CC[C@@]4(C)[C@]3(C)CC[C@@]2(CC(=O)NCc2cnn3cccnc23)CC1=O	92HT599	MT-2	p24 / ELISA	-	<1 µM
COc1cnc(-c2ccc(C(N)=O)cc2)c2[nH]cc(C(=O)C(=O)N3CCC(=C(C#N)c4ccccc4)CC3)c12	-	HeLa	luciferase	-	<1 µM
C[C@H](NC(=O)[C@@H]1CCCN1C(=O)[C@@H](NC(=O)[C@@H](NC(=O)[C@H](CC(=O)O)NC(=O)[C@@H](N)CO)[C@@H](C)O)[C@@H](C)O)C(=O)O	JR-CSF	PBMC (PHA stimulated) + PBMC	p24	7 d	>0.1 µM
Cc1ccc(C(=O)NC(C)(C)CNC(=O)C[C@@]23CC[C@]4(C)[C@H](CC[C@@H]5[C@@]6(C)CC[C@H](OC(=O)[C@H]7C[C@@H](C(=O)O)C7(C)C)C(C)(C)[C@@H]6CC[C@]54C)C2=C(C(C)C)C(=O)C3)nc1	92HT599	MT-2	p24 / ELISA	-	<1 µM
COc1ncc(OC)c2c(C(=O)C(=O)N3CCC(=C(c4ccccc4)c4nnc(C(F)(F)F)o4)CC3)c[nH]c12	-	HeLa	luciferase	-	<1 µM
CC(=O)N[C@@H](CC(=O)O)C(=O)N[C@H](C(=O)N[C@H](C(=O)N1CCC[C@H]1C(=O)N[C@@H](C)C(N)=O)[C@@H](C)O)[C@@H](C)O	JR-CSF	PBMC (PHA stimulated) + PBMC	p24	7 d	>0.1 µM
CC(C)C1=C2[C@H]3CC[C@@H]4[C@@]5(C)CC[C@H](OC(=O)[C@H]6C[C@@H](C(=O)O)C6(C)C)C(C)(C)[C@@H]5CC[C@@]4(C)[C@]3(C)CC[C@@]2(CC(=O)NCc2ccc3ccccc3n2)CC1=O	92HT599	MT-2	p24 / ELISA	-	<1 µM
CCCCCCCCCCCCCCCC(=O)NCC1CC(OP(=O)(O)OCC2OC(n3cnc4c(N)ncnc43)C(OP(=O)(O)OCC3OC(n4cnc5c(N)ncnc54)C(O)C3O)C2O)C(n2cnc3c(N)ncnc32)O1	IIIB	SupT1 + Sup-T1	syncytia	-	<100 µM
CC(C)C1=C2[C@H]3CC[C@@H]4[C@@]5(C)CC[C@H](OC(=O)[C@H]6C[C@@H](C(=O)O)C6(C)C)C(C)(C)[C@@H]5CC[C@@]4(C)[C@]3(C)CC[C@@]2([C@@H](O)CNCc2nc3ccccc3[nH]2)CC1=O	92HT599	MT-2	p24 / ELISA	-	<1 µM
COc1ncc(OC)c2c(C(=O)C(=O)N3CCC(=C(c4ccccc4)c4ccccc4)CC3)c[nH]c12	-	HeLa	luciferase	-	<1 µM
Cc1cc(CNCC[C@@]23CC[C@]4(C)[C@H](CC[C@@H]5[C@@]6(C)CC[C@H](OC(=O)[C@H]7C[C@@H](C(=O)O)C7(C)C)C(C)(C)[C@@H]6CC[C@]54C)C2=C(C(C)C)C(=O)C3)n[nH]1	92HT599	MT-2	p24 / ELISA	-	<1 µM
COCc1nc(Nc2ccc(C#N)cc2)nc(Nc2c(C)cc(/C=C/C#N)cc2C)c1C(=O)NCCC#N	MDR	MT4 CMV-EGFP	-	-	0.0933 µM
Cn1c2ccccc2c(=O)c2c(O)cccc21	IIIB	U-937	p24 / ELISA	-	7 µg/mL
CC(C)C1=C2[C@H]3CC[C@@H]4[C@@]5(C)CC[C@H](OC(=O)[C@H]6C[C@@H](C(=O)O)C6(C)C)C(C)(C)[C@@H]5CC[C@@]4(C)[C@]3(C)CC[C@@]2([C@@H](O)CNCC2(NC(=O)c3ccc(Cl)cc3)COC2)CC1=O	92HT599	MT-2	p24 / ELISA	-	<1 µM
COCc1nc(Nc2ccc(C#N)cc2)nc(Nc2c(C)cc(/C=C/C#N)cc2C)c1C(=O)NCCN(C)C	K103N + Y181C	MT4 CMV-EGFP	-	-	0.0631 µM
CC(C)C1=C2[C@H]3CC[C@@H]4[C@@]5(C)CC[C@H](OC(=O)[C@H]6C[C@@H](C(=O)O)C6(C)C)C(C)(C)[C@@H]5CC[C@@]4(C)[C@]3(C)CC[C@@]2(CCN[C@H](C)c2ccccc2)CC1=O	92HT599	MT-2	p24 / ELISA	-	<1 µM
COCc1nc(Nc2ccc(C#N)cc2)nc(Nc2c(C)cc(/C=C/C#N)cc2C)c1C(=O)N(C)CCN(C)C	L1001+K103N	MT4 CMV-EGFP	-	-	0.49 µM

2 of the rows above, restated:

C[C@H](NC(=O)[C@@H]1CCCN1C(=O)[C@@H](NC(=O)[C@@H](NC(=O)[C@H](CC(=O)O)NC(=O)[C@@H](N)CO)[C@@H](C)O)[C@@H](C)O)C(=O)O ; strain: JR-CSF ; cell line: PBMC (PHA stimulated) + PBMC ; read by: p24 ; setting: 7 d ; value: >0.1 µM
CC(C)C1=C2[C@H]3CC[C@@H]4[C@@]5(C)CC[C@H](OC(=O)[C@H]6C[C@@H](C(=O)O)C6(C)C)C(C)(C)[C@@H]5CC[C@@]4(C)[C@]3(C)CC[C@@]2(CC(=O)NCc2ccc3ccccc3n2)CC1=O ; strain: 92HT599 ; cell line: MT-2 ; read by: p24 / ELISA ; value: <1 µM